Measured values from several laboratories, pooled; numbers as filed in NIAID ChemDB.

Shared fields: target-level tests; organism: Herpes simplex virus 1; protein: Thymidine kinase

An empty or dashed field is not shown. Rows are shuffled and stem from different studies. Inhibition is in % at the dose shown (toxicity tests: loss of growth or viability). ICn: concentration for n% inhibition.

SMILES	strain or isolate	read-out	dose	result
Nc1nc2c(ncn2CCC(O)CO)c(=O)[nH]1	-	Ki	-	1.53 µM
O=c1[nH]c(=O)n([C@@H]2O[C@H](CO)[C@@H](O)[C@@H]2O)cc1/C=C/Br	C42	inhibition	5 µM	61%
C#C[C@H]1O[C@@H](n2cc(C)c(=O)[nH]c2=O)C[C@@H]1O	TR7	IC50	-	2 µM
CCOC(=O)/C=C/c1cn([C@@H]2O[C@H](CO)[C@@H](O)[C@@H]2F)c(=O)nc1N	F	inhibition	200 µM	0.9%
Nc1nc2c(ncn2CC[C@@H](O)CO)c(=O)[nH]1	C42	Ki	-	1.5 µM
Cc1cn(C(CCN=[N+]=[N-])OCCO)c(=O)[nH]c1=O	-	Ki	-	155 µM
Nc1nc(=O)n([C@@H]2O[C@H](CO)[C@@H](O)[C@@H]2F)cc1/C=C/Br	F	inhibition	200 µM	41.1%
Nc1nc2c(ncn2CC(CO)CCO)c(=O)[nH]1	C42	Ki	-	0.6 µM
C[C@@H](O)Cn1cnc2c(=S)nc(N)[nH]c21	-	Ki	-	800 µM
COC(=O)C[C@@H](SCCO)n1cnc2c(Cl)nc(N)nc21	-	Ki	-	477 µM
C/C=C/c1cn([C@@H]2O[C@H](CO)[C@@H](O)[C@@H]2O)c(=O)[nH]c1=O	C42	inhibition	5 µM	21%
Cc1cn([C@@H]2O[C@H](CO)[C@@H](O)[C@@H]2F)c(=O)nc1N	F	inhibition	200 µM	18.5%
Nc1nc2c(ncn2[C@@H](CCO)SCCO)c(=O)[nH]1	-	Ki	-	602 µM
C=Cc1cn([C@@H]2O[C@H](CO)[C@@H](O)[C@@H]2F)c(=O)nc1N	F	inhibition	200 µM	47.4%
C[C@@H](O)Cn1cnc2c(=O)[nH]cnc21	-	Ki	-	3700 µM
O=c1[nH]c(=O)n([C@@H]2O[C@H](CO)[C@@H](O)[C@@H]2F)cc1/C=C/Cl	F	inhibition	200 µM	58.6%
C[C@@H](O)Cn1cnc2c(CS)ncnc21	-	Ki	-	2400 µM
Nc1nc(=O)n([C@@H]2O[C@H](CO)[C@@H](O)[C@@H]2F)cc1/C=C/I	F	inhibition	200 µM	36.4%
C[C@@H](O)Cn1cnc2c(=O)[nH]c(N)nc21	-	Ki	-	900 µM

Again, the opening 2 rows:

| SMILES | strain or isolate | read-out | dose | result |
|---|---|---|---|---|
| Nc1nc2c(ncn2CCC(O)CO)c(=O)[nH]1 | - | Ki | - | 1.53 µM |
| O=c1[nH]c(=O)n([C@@H]2O[C@H](CO)[C@@H](O)[C@@H]2O)cc1/C=C/Br | C42 | inhibition | 5 µM | 61% |